Anti-infective test results gathered from many reports (values: NIAID ChemDB through PubChem).

Common to all: whole-cell or culture tests; organism: HIV-1; cell line: MT-2; read-out: EC50

ECn: concentration that inhibits the pathogen or its effect by n%.

SMILES,strain or isolate,changes,read by,value
CC(C)C1=C2[C@H]3CC[C@@H]4[C@@]5(C)CC[C@H](OC(=O)[C@H]6C[C@@H](C(=O)O)C6(C)C)C(C)(C)[C@@H]5CC[C@@]4(C)[C@]3(C)CC[C@@]2(CCNCc2cccc(Cl)c2)CC1=O,92HT599,-,p24 / ELISA,<1 µM
CCCCCCCCCCCCCCCCCCOCCOP(=O)(O)CO[C@H](CO)Cn1cnc2c(N)ncnc21,4xAZT,RT-D67N K70R T215Y K219Q,p24,0.00001 µM
CC#C[C@@]1(CO)C=C[C@H](n2cc(C)c(=O)[nH]c2=O)O1,IIIB,-,cytopathic effect / MTT,4 µM
CC(=O)N[C@H](CS(=O)(=O)c1ccc2ccccc2c1)C(=O)N[C@@H](Cc1ccccc1)[C@H](O)Cc1ccccc1C(=O)NC(C)(C)C,RF,-,cytopathic effect / XTT,0.03 µM
CC(=O)COc1c(Br)c(O)c2c(c1Br)C(=O)C1C=C(C)C=C(O)C1C2=O,IIIB,-,MTT,>18 µM
CC(C)C1=C2[C@H]3CC[C@@H]4[C@@]5(C)CC[C@H](OC(=O)[C@H]6C[C@@H](C(=O)O)C6(C)C)C(C)(C)[C@@H]5CC[C@@]4(C)[C@]3(C)CC[C@@]2(CCNCC(C)(C)NC(=O)c2ccc(N3CCOCC3)cc2)CC1=O,92HT599,-,p24 / ELISA,<1 µM
CC(CCc1ccccc1)N(C[C@@H](O)[C@H](Cc1ccccc1)NC(=O)[C@H](CC(N)=O)NC(=O)c1ccc2ccccc2n1)NC(=O)OC(C)(C)C,Clinical isolate strain 237228,-,cytopathic effect / RT activity / trypan blue,<1 µM
Cn1nc(NS(C)(=O)=O)c2c(Cl)ccc(-n3c([C@H](Cc4cc(F)cc(F)c4)NC(=O)Cn4nc(C(F)(F)F)c5c4C(F)(F)[C@@H]4C[C@H]54)nccc3=O)c21,NL4-3,-,luminescence,0.000493 µM
O=C(O[C@@H]1Cc2c(O)cc(O)cc2O[C@@H]1c1cc(O)c(O)c(O)c1)c1cc(O)c(O)c(O)c1,IIIB,-,p24,9.89 µM
CCCCCCCCCCCCCCCCOCCCOP(=O)(O)CO[C@H](CO)Cn1cnc2c(N)ncnc21,-,RT-K103N,p24,0.02 µM
CC(C)C1=C2[C@H]3CC[C@@H]4[C@@]5(C)CC[C@H](OC(=O)[C@H]6C[C@@H](C(=O)O)C6(C)C)C(C)(C)[C@@H]5CC[C@@]4(C)[C@]3(C)CC[C@@]2(CCNCC(F)(CCN)NC(=O)c2ccc(Cl)cc2)CC1=O,92HT599,-,p24 / ELISA,<1 µM
CC1=CC2C(=O)c3cc(OCC(=O)c4ccccc4)c(Br)c(O)c3C(=O)C2C(O)=C1,IIIB,-,MTT,>100 µM
CC(C)C1=C2[C@H]3CC[C@@H]4[C@@]5(C)CC[C@H](OC(=O)[C@H]6C[C@@H](C(=O)O)C6(C)C)C(C)(C)[C@@H]5CC[C@@]4(C)[C@]3(C)CC[C@@]2(CC(=O)N[C@H](CO)CNC(=O)c2ccc(Cl)cc2)CC1=O,92HT599,-,p24 / ELISA,<1 µM
CC(C)(C)OC(=O)N1CC2CCCCC2CN1C[C@H](O)[C@H](Cc1ccccc1)NC(=O)[C@H](CC#N)NC(=O)c1ccc2ccccc2n1,Clinical isolate strain 237228,-,cytopathic effect / RT activity / trypan blue,<1 µM
[2H]C(CNC(=O)C[C@@]12CC[C@]3(C)[C@H](CC[C@@H]4[C@@]5(C)CC[C@H](OC(=O)[C@H]6C[C@@H](C(=O)O)C6(C)C)C(C)(C)[C@@H]5CC[C@]43C)C1=C(C(C)C)C(=O)C2)NC(=O)c1ccc(Cl)cc1,92HT599,-,p24 / ELISA,<1 µM
COc1ccnc2[nH]cc(C(=O)C(=O)N3CCN(C(=O)c4ccccc4)C[C@H]3C)c12,NL4-3(GP120-M475I) Recombinant,GP120-M475I,RT activity,2.689 µM
CC(C)N(C[C@H](O)[C@H](Cc1ccccc1)NC(=O)[C@H](CC(N)=O)NC(=O)c1ccccn1)NC(=O)OC(C)(C)C,Clinical isolate strain 237228,-,cytopathic effect / RT activity / trypan blue,<1 µM
CC(C)C1=C2[C@H]3CC[C@@H]4[C@@]5(C)CC[C@H](OC(=O)[C@H]6C[C@@H](C(=O)O)C6(C)C)C(C)(C)[C@@H]5CC[C@@]4(C)[C@]3(C)CC[C@@]2([C@@H](O)CNCC2(NC(=O)c3ccc(Cl)cc3)CCC2)CC1=O,92HT599,-,p24 / ELISA,<1 µM
CC(C)N(C[C@@H](O)[C@H](Cc1ccccc1)NC(=O)[C@H](CC(N)=O)NC(=O)c1ccc2ccccc2n1)NC(=O)c1ccccc1NC(=O)OCc1ccccn1,Clinical isolate strain 237228,-,cytopathic effect / RT activity / trypan blue,<0.1 µM
Cc1cn([C@H]2C[C@H](F)[C@@H](COC(=O)CCCCCCCCCCCN=[N+]=[N-])O2)c(=S)[nH]c1=O,-,-,syncytia,~0.05 µM
COc1cnc(-n2cnc(C)n2)c2[nH]cc(C(=O)C(=O)N3CCN(C(=O)c4ccccc4)CC3)c12,NL4-3,-,RT activity,0.0022 µM
O=C(Oc1cc(O)cc2c1C[C@@H](OC(=O)c1cc(O)c(O)c(O)c1)[C@@H](c1cc(O)c(O)c(O)c1)O2)c1cc(O)c(O)c(O)c1,IIIB,-,p24,2.63 µM
CC(C)N(C[C@H](O)[C@H](Cc1ccccc1)NC(=O)[C@H](CC(N)=O)NC(=O)c1ccccc1)NC(=O)OC(C)(C)C,Clinical isolate strain 237228,-,cytopathic effect / RT activity / trypan blue,<1 µM
Cn1nc(NS(C)(=O)=O)c2c(Cl)ccc(-n3c([C@@H](Cc4cc(F)cc(F)c4)NC(=O)Cn4nc(C(F)F)c5c4C(F)(F)[C@@H]4C[C@H]54)nccc3=O)c21,NL4-3,-,luminescence,0.0127 µM
CC[C@H](C)[C@H](NC(=O)[C@H](Cc1ccccc1)CC(O)CN1C[C@H]2CCCC[C@H]2C[C@H]1C(=O)NC(C)(C)C)C(=O)N[C@H](C)c1nc2ccccc2[nH]1,IIIB,-,cytopathic effect / MTT,0.85 µM
COc1cc(Cl)ccc1CNC[C@H](O)[C@@]12CC[C@]3(C)[C@H](CC[C@@H]4[C@@]5(C)CC[C@H](OC(=O)[C@H]6C[C@@H](C(=O)O)C6(C)C)C(C)(C)[C@@H]5CC[C@]43C)C1=C(C(C)C)C(=O)C2,92HT599,-,p24 / ELISA,<1 µM
Cc1nn2cc1CCCCCC1(C)CCN(CC1)c1c([C@H](OC(C)(C)C)C(=O)O)c(C)nc3cc(nn13)-c1cccc-2c1,-,-,luciferase,0.007 µM
O=c1c(O)cc([C@H]2Oc3cc(O)cc(O)c3C[C@H]2O)cc2c([C@H]3Oc4cc(O)cc(O)c4C[C@H]3O)cc(O)c(O)c12,IIIB,-,p24,5.33 µM
CCSCCCCCCCCCCC(=O)OC[C@H]1O[C@@H](n2cc(C)c(=O)[nH]c2=S)C[C@@H]1F,-,-,syncytia,~0.05 µM

For reference, 4 entries again:

{"SMILES": "Cc1cn([C@H]2C[C@H](F)[C@@H](COC(=O)CCCCCCCCCCCN=[N+]=[N-])O2)c(=S)[nH]c1=O", "read by": "syncytia", "value": "~0.05 µM"}
{"SMILES": "O=c1c(O)cc([C@H]2Oc3cc(O)cc(O)c3C[C@H]2O)cc2c([C@H]3Oc4cc(O)cc(O)c4C[C@H]3O)cc(O)c(O)c12", "strain or isolate": "IIIB", "read by": "p24", "value": "5.33 µM"}
{"SMILES": "CC(=O)N[C@H](CS(=O)(=O)c1ccc2ccccc2c1)C(=O)N[C@@H](Cc1ccccc1)[C@H](O)Cc1ccccc1C(=O)NC(C)(C)C", "strain or isolate": "RF", "read by": "cytopathic effect / XTT", "value": "0.03 µM"}
{"SMILES": "CC(C)C1=C2[C@H]3CC[C@@H]4[C@@]5(C)CC[C@H](OC(=O)[C@H]6C[C@@H](C(=O)O)C6(C)C)C(C)(C)[C@@H]5CC[C@@]4(C)[C@]3(C)CC[C@@]2([C@@H](O)CNCC2(NC(=O)c3ccc(Cl)cc3)CCC2)CC1=O", "strain or isolate": "92HT599", "read by": "p24 / ELISA", "value": "<1 µM"}

An empty or dashed field is not shown. Rows are shuffled and stem from different studies.